Measured values from several laboratories, pooled; numbers as filed in NIAID ChemDB.

All rows: tests on isolated targets

Conditions beyond the fields shown may differ between rows. ICn is the concentration giving n% inhibition. An empty or dashed field is not shown.

structure,method,endpoint,target,organism,result
CCCCCn1c(Sc2ccc(C#N)c([N+](=O)[O-])c2)nnc1-c1cccs1,-,IC50,Thioredoxin reductase,Plasmodium berghei,4.8 µM
CN1CCC(NC2=CCC3=NC=C(c4cnn(-c5ccc(F)cn5)c4)[N+]3=N2)CC1,-,IC50,Calcium-dependent protein kinase 1,Plasmodium falciparum,0.04 µM
CC(C)CCn1c(Sc2ccc(C#N)c([N+](=O)[O-])c2)nnc1-c1ccc(Cl)cc1,-,IC50,Thioredoxin reductase,Plasmodium vivax,4.6 µM
COC(=O)c1ccc(-c2cc(Cl)cc(C3(C4CCC4)C(C#N)=C(N)Oc4n[nH]c(C)c43)c2)cc1,absorbance,Ki,Serine hydroxymethyltransferase,Plasmodium falciparum,0.21 µM
COc1cc(NC(C)CCCN)c2nccc(C)c2c1OCCCCCc1ccccc1C(F)(F)F,nucleotide incorporation,IC50,Hematin,Plasmodium falciparum,630 µM
Cc1ccc2c(c1)SC(c1cccc(S)c1)C1=C(N2)c2ccccc2C1=O,fluorescence,IC50,NDH2,Plasmodium falciparum,>20 µM
CCCCCCOc1c(OC)cc(NC(C)CCCN)c2nccc(C)c12,nucleotide incorporation,IC50,Hematin,Plasmodium falciparum,32 µM
Cc1[nH]nc2c1C(c1cc(Br)cc(C#N)c1)(C1CC=CC1)C(C#N)=C(N)O2,absorbance,IC50,Serine hydroxymethyltransferase,Plasmodium falciparum,0.59 µM
CN1CCC(NC2=CCC3=NC=C(c4cnn(-c5cnccn5)c4)[N+]3=N2)CC1,-,IC50,Calcium-dependent protein kinase 1,Plasmodium falciparum,0.013 µM
Cc1c(-c2ccc(-c3ccc(OC(C)(C)C)cc3)nc2)[nH]c2ccccc2c1=O,-,IC50,PfNDH2,Plasmodium falciparum,0.014 µM
CC(C)C[C@H](NC(=O)[C@@H](O)[C@H](N)Cc1ccccc1)C(=O)O,fluorescence,IC50,PfM1AAP,Plasmodium falciparum,0.3 µM
CCC1(c2cc(Cl)cc(Cl)c2)C(C#N)=C(N)Oc2n[nH]c(C)c21,absorbance,IC50,Serine hydroxymethyltransferase,Plasmodium falciparum,0.28 µM
Nc1nc2c(ncn2CC(CO)OCP(=O)(O)O)c(=O)[nH]1,absorbance,Ki,Hypoxanthine-guanine-xanthine phosphoribosyltransferase,Plasmodium falciparum,0.6 µM
N#CCN(CCn1cnc2c(=O)[nH]c(N)nc21)CCP(=O)(O)O,absorbance,Ki,Hypoxanthine-guanine-xanthine phosphoribosyltransferase,Plasmodium falciparum,>250 µM
COc1cc(NC(C)CCCN)c2nccc(C)c2c1OCCCCCc1cccc(C)c1,nucleotide incorporation,IC50,Hematin,Plasmodium falciparum,25 µM
CN1CCC(NC2=CCC3=NC=C(c4cnn(-c5ccc(F)cc5F)c4)[N+]3=N2)CC1,-,IC50,Calcium-dependent protein kinase 1,Plasmodium falciparum,0.203 µM
Cc1[nH]nc2c1C(c1cc(Cl)cc(-c3cccnc3)c1)(C1CCC1)C(C#N)=C(N)O2,absorbance,IC50,Serine hydroxymethyltransferase,Plasmodium falciparum,0.3 µM
Cc1ccc(Cl)c2nc(N3CCN(C(=O)c4ccc([N+](=O)[O-])o4)CC3)sc12,-,IC50,Thioredoxin reductase,Plasmodium vivax,<4 µM

Repeating the final 3 entries:

structure | method | endpoint | target | organism | result
CN1CCC(NC2=CCC3=NC=C(c4cnn(-c5ccc(F)cc5F)c4)[N+]3=N2)CC1 | - | IC50 | Calcium-dependent protein kinase 1 | Plasmodium falciparum | 0.203 µM
Cc1[nH]nc2c1C(c1cc(Cl)cc(-c3cccnc3)c1)(C1CCC1)C(C#N)=C(N)O2 | absorbance | IC50 | Serine hydroxymethyltransferase | Plasmodium falciparum | 0.3 µM
Cc1ccc(Cl)c2nc(N3CCN(C(=O)c4ccc([N+](=O)[O-])o4)CC3)sc12 | - | IC50 | Thioredoxin reductase | Plasmodium vivax | <4 µM